Measured values from several laboratories, pooled; numbers as filed in NIAID ChemDB.

Shared fields: whole-cell or culture tests; species: HIV-1; read by: cytopathic effect / MTT; read-out: EC50

Two numbers with a dash give a range or band. An empty or dashed field is not shown. Neighbouring rows are from separate reports. ECn: concentration that inhibits the pathogen or its effect by n%.

structure	strain or isolate	cell line	changes	value
CN(CCN1CCOCC1)C(=O)CN1c2ccccc2C2C1C=C(C#N)C(=O)N2c1ccc([N+](=O)[O-])cc1	LAI	MT-4	-	1–32 µM
Cc1cncc(C)c1OCCOC(=O)N[C@@H](Cc1ccccc1)[C@H](O)CN(CC(C)C)S(=O)(=O)c1ccc2nc(N)oc2c1	LAI WT	MT-4	-	0.5248 µM
CCOC(=O)c1cc(-c2cccc(N)c2)n(-c2cccc(OC)c2)c1C	-	MT-4	-	>32 µM
CCOCn1c(Cc2cccc(Cc3[nH]c(=O)[nH]c(=O)c3CC)c2)c(CC)c(=O)[nH]c1=O	RT-K103N+Y181C NNRTI-resistant	MT-4	RT-K103N Y181C	>100 µM
Cc1cn([C@H]2C=C[C@@H](CO)O2)c(=O)[nH]c1=O	HXB2	MT-4	RT-K65R	0.6 µM
C[C@]12CCC3C(CC[C@H]4C[C@@H](CC=C(c5cc(Cl)c(O)c(C(=O)O)c5)c5cc(Cl)c(O)c(C(=O)O)c5)CC[C@]34C)C1CC[C@@H]2CC=C(c1cc(Cl)c(O)c(C(=O)O)c1)c1cc(Cl)c(O)c(C(=O)O)c1	IIIB	CEM + CEM-SS	-	14 µM
CC(C)CN(C[C@@H](O)[C@H](Cc1ccccc1)NC(=O)O[C@H]1CO[C@H]2OCC[C@H]21)S(=O)(=O)c1ccc2nc(N(C)CCCN(C)C)sc2c1	R13080	MT-4	-	0.955 µM
CC(=O)c1c(Br)c2c3ccccc3c3ccccc3n2c1C	-	MT-4	-	>182 µM
COc1c(Cl)cc(C(=CCNC(=O)C[C@H]2CC[C@]3(C)C4CC[C@@]5(C)C(CC[C@@H]5CC(=O)NCC=C(c5cc(Cl)c(OC)c(C(=O)O)c5)c5cc(Cl)c(OC)c(C(=O)O)c5)C4CC[C@H]3C2)c2cc(Cl)c(OC)c(C(=O)O)c2)cc1C(=O)O	IIIB	CEM + CEM-SS	-	48 µM
CCOCn1c(Cc2ccccc2)c(C(C)C)c(=O)[nH]c1=O	RT-K103N Y181C Mutant NNRTI-resistant	MT-4	-	>100 µM
CC(C)CN(C[C@@H](O)[C@H](Cc1ccccc1)NC(=O)OCc1cncs1)S(=O)(=O)c1ccc2nc(NC(=O)CN3CCN(C)CC3)sc2c1	R13080	MT-4	-	0.0347 µM
C#CCOC(=O)c1cccn1S(=O)(=O)c1cc(Cl)ccc1N	IIIB	MT-4	-	1.86 µM
CNc1nc2ccc(S(=O)(=O)N(CC(C)C)C[C@@H](O)[C@H](Cc3ccccc3)NC(=O)COc3c(C)cccc3C)cc2o1	LAI WT	MT-4	-	0.0468 µM
COc1c(Cl)cc(C(=CCCCCN(C(=O)C=C(c2cc(Cl)c(OC)c(C(=O)O)c2)c2cc(Cl)c(OC)c(C(=O)O)c2)[C@H]2CC[C@]3(C)C4CC[C@@]5(C)C(CC[C@@H]5C(C)CCCC(C)C)C4CC[C@H]3C2)c2cc(Cl)c(OC)c(C(=O)O)c2)cc1C(=O)O	IIIB	MT-4	-	9.9 µM
O=C(OC1OC2COC(=O)c3cc(O)c(O)c(O)c3-c3c(cc(O)c(O)c3O)C(=O)OC2C(OC(=O)c2cc(O)c(O)c(O)c2)C1OC(=O)c1cc(O)c(O)c(O)c1)c1cc(O)c(O)c(Oc2c(C(=O)OC3OC4COC(=O)c5cc(O)c(O)c(O)c5-c5c(cc(O)c(O)c5O)C(=O)OC4C(OC(=O)c4cc(O)c(O)c(O)c4)C3OC(=O)c3cc(O)c(O)c(O)c3)cc(O)c(O)c2O)c1	IIIB	MT-4	-	>50 µg/mL
C=CCOCn1c(Cc2cccc(OCC=C)c2)c(CC)c(=O)[nH]c1=O	RT-Y181C Mutant NNRTI-resistant	MT-4	-	4 µM
COC(=O)c1[nH]c(=S)n(Nc2cccc(Cl)c2)c1C	NL4-3	MT-4	-	>48.8 µM
COCCOC(=O)c1cccn1S(=O)(=O)c1cc(Cl)ccc1N	IIIB	MT-4	-	3.2 µM
CC(=O)Nc1nc(-c2ccc(S(=O)(=O)N(CC(C)C)C[C@@H](O)[C@H](Cc3ccccc3)NC(=O)O[C@H]3CO[C@H]4OCC[C@H]43)cc2)cs1	-	MT-4	PR-L010F M046I M071V I084V	0.755 µM
CCOC(=O)c1c(Br)c2c3ccccc3c3ccccc3n2c1C	-	MT-4	-	>300 µM
N#CC1=CC2C(c3ccccc3N2CCCN2CCCC2)N(c2ccc([N+](=O)[O-])cc2)C1=O	LAI	MT-4	-	1–32 µM
C=CCOc1cccc(Cc2nc(N(C)C)[nH]c(=O)c2CC)c1	IIIB	MT-4	-	>20 µM
O=C(OC1C(OC(=O)c2cc(O)c(O)c(O)c2Oc2cc3c(c(O)c2O)-c2c(cc(O)c(O)c2O)C(=O)OCC2OC(OC(=O)c4cc(O)c(O)c(O)c4O)C(OC(=O)c4cc(O)c(O)c(O)c4)C(OC(=O)c4cc(O)c(O)c(O)c4)C2OC3=O)OC2COC(=O)c3ccc(O)c(O)c3-c3c(cc(O)c(O)c3O)C(=O)OC2C1OC(=O)c1cc(O)c(O)c(O)c1)c1cc(O)c(O)c(O)c1	IIIB	MT-4	-	>100 µg/mL
CCOC(=O)c1cc(-c2cccc(N=[N+]=[N-])c2)n(-c2cccc(OC)c2)c1C	-	MT-4	-	>47 µM
CC(C)CN(C[C@@H](O)[C@H](Cc1ccccc1)NC(=O)O[C@H]1CCOC1)S(=O)(=O)c1ccc2nc(NCCN(C)C)sc2c1	IIIB	MT-4	-	0.0095 µM
COc1cccc(Nn2c(-c3ccccc3)c(C)[nH]c2=S)c1	IIIB	MT-4	-	4.78 µM
CC(C)CN(C[C@@H](O)[C@H](Cc1ccccc1)NC(=O)O[C@H]1CO[C@H]2OCC[C@H]21)S(=O)(=O)c1ccc(-c2coc(-c3ccc(Br)cc3)n2)cc1	LAI	MT-4	-	0.032 µM
Cc1[nH]c(=S)n(Nc2ccccc2)c1-c1ccccc1	IIIB	MT-4	-	>191 µM
CC(C)CN(C[C@@H](O)[C@H](Cc1ccccc1)NC(=O)O[C@H]1CCOC1)S(=O)(=O)c1ccc2nc(N)oc2c1	LAI WT	MT-4	-	0.0076 µM
Cc1cc(C)cc(Nn2cnc(C)c2-c2ccccc2)c1	NL4-3	MT-4	-	10.99 µM
CC(C)CN(C[C@@H](O)[C@H](Cc1ccccc1)NC(=O)O[C@@H]1CO[C@@H]2OCC[C@@H]21)S(=O)(=O)c1ccc2nc(NC(=O)CN3CCCC3)sc2c1	LAI	MT-4	-	<0.05 µM
CNc1nc(-c2ccc(S(=O)(=O)N(CC(C)C)C[C@@H](O)[C@H](Cc3ccccc3)NC(=O)O[C@H]3CO[C@H]4OCC[C@H]43)cc2)cs1	LAI	MT-4	-	0.003 µM
COc1ccccc1N1CCN(c2c(F)cc3c(=O)c(C(=O)O)cn(C)c3c2CN(C)C)CC1	-	MOLT-4	-	0.18 µM
CN1CCN(C(=O)CN2c3ccccc3C3C2C=C(C#N)C(=O)N3c2ccc([N+](=O)[O-])cc2)CC1	LAI	MT-4	-	1–32 µM
CC(C)CN(C[C@@H](O)[C@H](Cc1ccccc1)NC(=O)OCc1cncs1)S(=O)(=O)c1ccc2nc(N(C)C(=O)CN(C)CCCN3CCCC3)sc2c1	R13025	MT-4	-	0.9333 µM
C=C(C)[C@@H]1CC[C@]2(C(=O)NCCCCCCCC(=O)N[C@@H](CC(C)C)[C@@H](O)CC(=O)O)CC[C@]3(C)[C@H](CC[C@@H]4[C@@]5(C)CC[C@H](O)C(C)(C)[C@@H]5CC[C@]43C)[C@@H]12	RF	MT-4	-	0.75 µM
O=C(OC[C@H]1O[C@@H](OC(=O)c2cc(O)c(O)c(O)c2)[C@H](OC(=O)c2cc(O)c(O)c(O)c2)[C@@H](OC(=O)c2cc(O)c(O)c(O)c2)[C@@H]1OC(=O)c1cc(O)c(O)c(O)c1)c1cc(O)c(O)c(O)c1	IIIB	MT-4	-	>25 µg/mL
CC(=O)N(C)c1nc2ccc(S(=O)(=O)N(Cc3ccccn3)C[C@@H](O)[C@H](Cc3ccccc3)NC(=O)COc3c(C)cccc3C)cc2s1	LAI	MT-4	-	>0.5 µM
C=CCCc1cccc(Cc2c(CC)c(=O)[nH]c(=O)n2COCC=C)c1	RT-Y181C Mutant NNRTI-resistant	MT-4	-	1 µM
CC(C)CN(C[C@@H](O)[C@H](Cc1ccccc1)NC(=O)O[C@H]1CO[C@H]2OCC[C@H]21)S(=O)(=O)c1ccc(-c2coc(-c3ccc([N+](=O)[O-])cc3)n2)cc1	LAI	MT-4	-	0.013 µM
CNc1nc2ccc(S(=O)(=O)N(CC(C)C)C[C@@H](O)[C@H](Cc3ccccc3)NC(=O)c3cccc(N)c3C)cc2o1	LAI WT	MT-4	-	0.0204 µM
C=CCOCn1c(Cc2cccc(Cc3[nH]c(=O)[nH]c(=O)c3CC)c2)c(CC)c(=O)[nH]c1=O	-	MT-4	-	11 µM
CC(C)CN(C[C@@H](O)[C@H](Cc1ccccc1)NC(=O)OC(C)(C)C)S(=O)(=O)c1ccc2nc(NCc3ccncc3)sc2c1	IIIB	MT-4	-	0.3311 µM
CCOCn1c(Cc2ccccc2)c(C(C)C)c(=O)[nH]c1=O	-	MT-4	-	0.03 µM
Cn1c2ccccc2c2c1cc(C#N)c(=O)n2-c1ccc([N+](=O)[O-])cc1	E	MT-4	RT-F227C	0.06 µM
CCOCn1c(Cc2cccc(CCC3CO3)c2)c(CC)c(=O)[nH]c1=O	RT-Y181C Mutant NNRTI-resistant	MT-4	-	80 µM
CCOC(=O)C(CC)C(=O)Cc1cccc(Cc2[nH]c(=O)c(CC)c(O)c2CC)c1	-	MT-4	-	>100 µM
CCOCn1c(Cc2cccc(CCC=O)c2)c(CC)c(=O)[nH]c1=O	RT-K103N Y181C Mutant NNRTI-resistant	MT-4	-	>100 µM
O=C(OC[C@H]1O[C@@H](OC(=O)c2cc(O)c(O)c(O)c2)[C@H](OC(=O)c2cc(O)c(O)c(O)c2)[C@@H](OC(=O)c2cc(O)c(O)c(O)c2)[C@@H]1O)c1cc(O)c(O)c(O)c1	IIIB	MT-4	-	>50 µg/mL
Cn1cc(C(=O)O)c(=O)c2cc(F)c(N3CC=C(c4ccccc4)CC3)c(C(F)(F)F)c21	-	MOLT-4	-	0.02 µM
CCCCOC(=O)c1cc(O)c(O)c(O)c1	IIIB	MT-4	-	>25 µg/mL
Cc1cccc(C)c1OC(CCO)C(=O)N[C@@H](Cc1ccccc1)[C@H](O)CN(CC(C)C)S(=O)(=O)c1ccc2nc(N)oc2c1	LAI WT	MT-4	-	1.62 µM
O=CC1OC(=O)c2cc(O)c(O)c(O)c2Oc2cc3c(c(O)c2O)-c2c(cc(O)c(O)c2O)C(=O)OCC2OC(OC(=O)c4cc(O)c(O)c(O)c4Oc4cc5c(c(O)c4O)-c4c(cc(O)c(O)c4O)C(=O)OC(C(O)COC5=O)C1OC(=O)c1cc(O)c(O)c(O)c1)C(OC(=O)c1cc(O)c(O)c(O)c1)C(OC(=O)c1cc(O)c(O)c(O)c1)C2OC3=O	IIIB	MT-4	-	>4.8 µg/mL
Nc1ccc(Cl)cc1S(=O)(=O)n1cccc1C(=O)OCC1CC1	IIIB	MT-4	-	2.3 µM
CCCn1nccc1-c1ccc(S(=O)(=O)N(CC(C)C)C[C@@H](O)[C@H](Cc2ccccc2)NC(=O)COc2c(C)cccc2C)cc1	LAI	MT-4	-	10 µM
COc1c(Cl)cc(C(=CCCCCN[C@H]2CC[C@]3(C)C4CC[C@@]5(C)C(CC[C@@H]5C(C)CCCC(C)C)C4CC[C@H]3C2)c2cc(Cl)c(OC)c(C(=O)O)c2)cc1C(=O)O	IIIB	CEM + CEM-SS	-	>150 µM
CC(=O)N(CCN1CCCC1)c1nc2ccc(S(=O)(=O)N(CC(C)C)C[C@@H](O)[C@H](Cc3ccccc3)NC(=O)O[C@H]3CO[C@H]4OCC[C@H]43)cc2s1	R13025	MT-4	-	0.0045 µM
Cc1cc(C)cc(Nn2c(-c3ccccc3)c(C)[nH]c2=S)c1	SO561945 (RT K103N Y181C)	MT-4	RT-K103N Y181C	>194 µM
CC(=O)OC(c1ccccc1)c1nc(-c2ccc(S(=O)(=O)N(CC(C)C)C[C@@H](O)[C@H](Cc3ccccc3)NC(=O)O[C@H]3CO[C@H]4OCC[C@H]43)cc2)co1	LAI	MT-4	-	0.005 µM
Cc1cccc(Nn2c(-c3ccccc3)c(C(C)C)[nH]c2=S)c1	SO561945 (RT K103N Y181C)	MT-4	RT-K103N Y181C	>42.63 µM
NC(=O)c1cccn1S(=O)(=O)c1ccccc1N	IIIB	MT-4	-	>200 µM

Repeating the first 7 entries:

structure	strain or isolate	cell line	changes	value
CN(CCN1CCOCC1)C(=O)CN1c2ccccc2C2C1C=C(C#N)C(=O)N2c1ccc([N+](=O)[O-])cc1	LAI	MT-4	-	1–32 µM
Cc1cncc(C)c1OCCOC(=O)N[C@@H](Cc1ccccc1)[C@H](O)CN(CC(C)C)S(=O)(=O)c1ccc2nc(N)oc2c1	LAI WT	MT-4	-	0.5248 µM
CCOC(=O)c1cc(-c2cccc(N)c2)n(-c2cccc(OC)c2)c1C	-	MT-4	-	>32 µM
CCOCn1c(Cc2cccc(Cc3[nH]c(=O)[nH]c(=O)c3CC)c2)c(CC)c(=O)[nH]c1=O	RT-K103N+Y181C NNRTI-resistant	MT-4	RT-K103N Y181C	>100 µM
Cc1cn([C@H]2C=C[C@@H](CO)O2)c(=O)[nH]c1=O	HXB2	MT-4	RT-K65R	0.6 µM
C[C@]12CCC3C(CC[C@H]4C[C@@H](CC=C(c5cc(Cl)c(O)c(C(=O)O)c5)c5cc(Cl)c(O)c(C(=O)O)c5)CC[C@]34C)C1CC[C@@H]2CC=C(c1cc(Cl)c(O)c(C(=O)O)c1)c1cc(Cl)c(O)c(C(=O)O)c1	IIIB	CEM + CEM-SS	-	14 µM
CC(C)CN(C[C@@H](O)[C@H](Cc1ccccc1)NC(=O)O[C@H]1CO[C@H]2OCC[C@H]21)S(=O)(=O)c1ccc2nc(N(C)CCCN(C)C)sc2c1	R13080	MT-4	-	0.955 µM